## Fitness effects across NS2B and the NS3 protease domain of Zika virus

Values reported by Ni et al. 2025 (doi:10.1038/s41467-025-63602-z).

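Libraries of single mutants were passaged as virus pools on Huh-7.5 cells. Sequencing of three replicate libraries (two for positions 207-308) was averaged into one effect per change. The aim was to find sites where inhibitor-binding pockets cannot change.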

Chain scanned (Zika virus MR766; NS2B from position 2 to 131, then the start of NS3):
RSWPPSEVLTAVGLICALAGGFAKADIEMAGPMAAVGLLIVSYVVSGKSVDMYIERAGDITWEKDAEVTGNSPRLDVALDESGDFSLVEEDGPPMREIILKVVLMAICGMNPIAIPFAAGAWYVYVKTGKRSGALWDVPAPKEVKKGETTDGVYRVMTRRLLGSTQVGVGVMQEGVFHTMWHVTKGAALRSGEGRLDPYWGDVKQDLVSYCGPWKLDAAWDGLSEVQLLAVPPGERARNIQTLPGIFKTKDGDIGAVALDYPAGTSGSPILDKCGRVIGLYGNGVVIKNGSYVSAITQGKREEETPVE

The number is log2 of the effect relative to wild type; negative values mean reduced growth, higher values better tolerance.
Each entry names the wild-type residue, its position and the residue put in its place.
All changes here are to cysteine.

R1C: -6.98.
S2C: -3.72.
W3C: -6.68.
P4C: -5.09.
P5C: -1.82.
S6C: 0.51.
E7C: -2.17.
V8C: -2.50.
L9C: -1.43.
T10C: -0.57.
A11C: -1.39.
V12C: -0.55.
G13C: -3.39.
L14C: -1.33.
I15C: -0.54.
A17C: -0.19.
L18C: -3.18.
A19C: -0.62.
G20C: -5.41.
G21C: -1.70.
F22C: 0.12.
A23C: 0.35.
K24C: -3.05.
A25C: 0.85.
D26C: -5.48.
I27C: -1.55.
E28C: -3.39.
M29C: -0.62.
A30C: 0.07.
G31C: -5.84.
P32C: -4.58.
M33C: -5.20.
A34C: -1.00.
A35C: -1.51.
V36C: 0.15.
G37C: -2.89.
L38C: -2.30.
L39C: -2.00.
I40C: -0.72.
V41C: -1.35.
S42C: -5.56.
Y43C: -5.70.
V44C: -3.64.
V45C: -4.22.
S46C: 2.28.

5 of these entries, quoted again:

mutation	log2 growth effect
A17C	-0.19
P4C	-5.09
W3C	-6.68
K24C	-3.05
A34C	-1.00

The region was split into three libraries (1-103, 104-206, 207-308).
Values above 0 are not proof of better growth: six high scorers were tested one by one, five grew less well than wild type and one about as well.
The authors count -1 or higher as tolerated. Position 1 is the last residue of NS2A.